Reference: PubChem BioAssay AID1259414 (Drosophila RNAi Screening Center, 2018)

Assay: 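Genome-wide screen for host control of endosymbiont load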 (primary screen)
Cell system: Drosophila JW18 cells infected with Wolbachia
Reagent: long dsRNA against Drosophila genes, 0.25 µg dsRNA per well of a 384-well plate
Time to read-out: 5 days
Challenge: cells persistently infected with Wolbachia before knock-down; no added drug
Measured: 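Imaged fluorescence in situ signal for Wolbachia 23S rRNA per DAPI-counted host cell, given as a robust z-score within each plate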
Scale: Wolbachia per cell robust z: higher = more Wolbachia per host cell than the plate typical
Hit rule: 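Hit when robust z is 1.5 or more, or -1.5 or less, in at least two of three replicates; excludes dsRNAs with several or no targets, genes not expressed in JW18 and well A1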
The deposit covers about 24,000 reagents; this is an unselected part of those with a known target gene and a result. Of all reagents, about 1,210 (5%) got an active call. 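Inactive calls also include excluded dsRNAs with several or no targets, genes unexpressed in JW18, and well A1, regardless of score.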 The numbers tell different reagents against one gene apart. Names joined by + are all predicted targets of the reagent.

Gene	reagent no.	Wolbachia per cell robust z, rep 1	Wolbachia per cell robust z, rep 2	Wolbachia per cell robust z, rep 3	Outcome
galectin	1	-6.34	0.0844	-0.821	inactive
CG13998	1	-4.35	-0.843	-0.399	inactive
CG13998	2	1.17	-0.456	0.00265	inactive
CG10947	1	-0.609	-0.052	-0.313	inactive
CG10947	2	0.0926	0.511	-0.614	inactive
wkd (whacked)	1	1.08	-1.35	0.115	inactive
SrpRalpha (Signal recognition particle receptor alpha)	1	0.514	0.0667	-8.63	inactive
CG34034	1	-1.12	-0.354	-0.463	inactive
CG7024	1	0.238	0.0715	0.529	inactive
CG7024	2	-0.553	0.652	0.81	inactive
loh (lonely heart)	1	-1.98	-1.36	-8.21	active
loh (lonely heart)	2	-0.51	0.974	-1.31	inactive
CG8414	1	0.647	-2.48	-0.634	inactive
CG31337	1	-1.25	-0.547	-0.618	inactive
CG13138	1	0.641	-3.86	0.14	inactive
CG10904	1	-0.119	0.213	0.179	inactive
Sirup (Starvation-upregulated protein)	1	0.467	0.223	-0.813	inactive
Sirup (Starvation-upregulated protein)	2	-1.56	0.641	-7.41	inactive
Sirup (Starvation-upregulated protein)	3	0.801	1.85	1.93	inactive
org-1 (optomotor-blind-related-gene-1)	1	-3.2	-3.05	-1.19	active
org-1 (optomotor-blind-related-gene-1)	2	0.615	0.675	0.264	inactive
Targ (Tarag)	1	0.943	1.22	0.265	inactive
BORCS5 (BLOC-1 related complex subunit 5)	1	0.354	0.198	0.39	inactive
BORCS5 (BLOC-1 related complex subunit 5)	2	-0.33	-0.387	-0.561	inactive
CG8320 + ATPCL	1	0.87	0.974	-1.82	inactive
QIL1	1	0.06	0.89	-0.501	inactive
Snx1 (Sorting nexin 1)	1	0.236	0.79	1.4	inactive
CG4390	1	1.87	1.22	-0.574	inactive
CG4390	2	-0.807	-0.718	0.282	inactive

Entries listed so far whose gene name starts with B or b (2):
Gene	reagent no.	Wolbachia per cell robust z, rep 1	Wolbachia per cell robust z, rep 2	Wolbachia per cell robust z, rep 3	Outcome
BORCS5 (BLOC-1 related complex subunit 5)	1	0.354	0.198	0.39	inactive
BORCS5 (BLOC-1 related complex subunit 5)	2	-0.33	-0.387	-0.561	inactive

More reagents:
Gene	reagent no.	Wolbachia per cell robust z, rep 1	Wolbachia per cell robust z, rep 2	Wolbachia per cell robust z, rep 3	Outcome
PrBP (Prenyl-binding protein)	1	-0.396	0.506	1.04	inactive
PrBP (Prenyl-binding protein)	2	0.684	0.554	1.1	inactive
Ssl2 (Strictosidine synthase-like 2)	1	0.908	-1.65	-0.284	inactive
Ssl2 (Strictosidine synthase-like 2)	2	0.309	-1.13	0.13	inactive
CG11360	1	0.824	-7.54	-1.1	inactive
hng2 (hinge2)	1	0.898	-1.25	1.94	inactive
AcCoAS (Acetyl Coenzyme A synthase)	1	-0.0648	-2.05	-1.26	inactive
AcCoAS (Acetyl Coenzyme A synthase)	2	0.705	-0.679	0.758	inactive
AcCoAS (Acetyl Coenzyme A synthase)	3	1.32	-0.534	0.83	inactive
AcCoAS (Acetyl Coenzyme A synthase)	4	1.09	1.52	1.7	active
CG32188	1	0.669	0.652	-0.704	inactive
Ugt37C1 (UDP-glycosyltransferase family 37 member C1)	1	0.479	0.617	0.729	inactive
Ugt37C1 (UDP-glycosyltransferase family 37 member C1)	2	-1.2	-1.98	-0.39	inactive
Cog1 (Component of oligomeric golgi complex 1)	1	-2.34	-0.188	-1.77	active
salr (spalt-related)	1	0.00984	-6.02	-0.48	inactive
gammaTub23C (gamma-Tubulin at 23C)	1	0.107	0.0104	-0.913	inactive
gammaTub23C (gamma-Tubulin at 23C)	2	-0.153	-0.429	0.155	inactive
gammaTub23C (gamma-Tubulin at 23C)	3	1.48	0.00895	0.106	inactive
CG30099	1	-0.965	-1.5	-1.46	inactive
CG30099	2	-0.348	-0.878	1	inactive
promL (prominin-like)	1	1.07	0.912	0.266	inactive
CHKov2 (CHK domain ov2)	1	-1.85	-0.335	-0.132	inactive
CHKov2 (CHK domain ov2)	2	0.0336	0.585	0.101	inactive
CG14246	1	0.515	0.0204	-1.42	inactive
CG14246	2	-0.228	-1.12	-0.31	inactive
RpS11 (Ribosomal protein S11)	1	2.64	2.66	2.37	active
RpS11 (Ribosomal protein S11)	2	-0.527	-0.087	0.77	inactive
CG2321	1	0.15	1.26	0.789	inactive
CG10029	1	1.58	1.46	-0.167	inactive
CG12506	1	0.826	-5.39	-0.0293	inactive
CG4338	1	-0.269	0.136	0.893	inactive
Taf1 (TBP-associated factor 1)	1	-1.12	0.778	0.375	inactive
Taf1 (TBP-associated factor 1)	2	-1.06	-0.0959	0.847	inactive
ca (claret)	1	-0.146	-0.874	-0.756	inactive
ca (claret)	2	0.837	0.938	0.638	inactive
ca (claret)	3	0.216	-0.362	0.982	inactive
MFS16 (Major Facilitator Superfamily Transporter 16)	1	-1.04	-0.248	-0.555	inactive
MFS16 (Major Facilitator Superfamily Transporter 16)	2	-0.303	-0.599	-0.752	inactive
DIP-lambda (Dpr-interacting protein lambda)	1	1.11	0.53	1.16	inactive
